Results on one compound are retold here after patent publication US20110269834A1 (priority 2008, published 2011).

This assay addresses SARS-CoV PLpro (Severe acute respiratory syndrome coronavirus, UniProt P0C6X7). Put plainly: biochemical.

A word on the Ki: it is the equilibrium dissociation constant of an inhibitor or competing ligand from its target. Read a low Ki as a stronger hold on the target.

`Cc1ccc(N)cc1C(=O)N[C@H](C)c1cccc2ccccc12` [Compound 24, 5-Amino-2-methyl-N—[(R)-1-(1-naphthyl)ethyl]benzamide] gave an inhibition constant Ki of 0.49 ± 0.08 µM.
